This experiment deals with A/Brisbane/10/2007 (H3N2) hemagglutinin with Pro at residue 194 (influenza A virus A/Brisbane/10/2007 (H3N2)). As to the kind of experiment: crystal structure.

Take “A/Brisbane/10/2007 (H3N2) hemagglutinin with Pro at residue 194 (natural protein)”: the stoichiometry N stood at 3.
